Test results as given in patent US20220033460A1, “IDENTIFICATION AND USE OF T CELL EPITOPES IN DESIGNING DIAGNOSTIC AND THERAPEUTIC APPROACHES FOR COVID-19” (priority 2020, published 2022).

Test system: CD8+ T cells
Format: cell-based, human
Conditions: cells of the TCR clonotype specific for the epitope / HLA class I of the same line

| Molecule | No. of Cells |
| --- | --- |
| TCR_28: TCR to … / A*02:01 (protein) TCR alpha: AQSVSQHNHHVILSEAASLELGCNYSYGGTVNLFWYVQYPGQHLQLLLKYFSGDPLVKGIKGFEAEFIKSKFSFNLRKPSVQWSDTAEYFCAWILSGNTPLVFGKGTRLSVIANIQNPDPAVYQLRDSKSSDKSVCLFTDFDSQTNVSQSKDSDVYITDKTVLDMRSMDFKSNSAVAWSNKSDFACANAFNNSIIPEDTFFPSPESSCDVKLVEKSFETDTNLNFQNLSVIGFRILLLKVAGFNLLMTLRLWSS TCR beta: EAGVAQSPRYKIIEKRQSVAFWCNPISGHATLYWYQQILGQGPKLLIQFQNNGVVDDSQLPKDRFSAERLKGVDSTLKIQPAKLEDSAVYLCASSLGTGGTEAFFGQGTRLTVVEDLNKVFPPEVAVFEPSEAEISHTQKATLVCLATGFFPDHVELSWWVNGKEVHSGVSTDPQPLKEQPALNDSRYCLSSRLRVSATFWQNPRNHFRCQVQFYGLSENDEWTQDRAKPVTQIVSAEAWGRADCGFTSVSYQQGVLSATILYEILLGKATLYAVLVSALVLMAMVKRKDF | 5 |
| TCR_29: TCR to … / B*07:02 (protein) TCR alpha: RKEVEQDPGPFNVPEGATVAFNCTYSNSASQSFFWYRQDCRKEPKLLMSVYSSGNEDGRFTAQLNRASQYISLLIRDSKLSDSATYLCVVNDPNSGNTPLVFGKGTRLSVIANIQNPDPAVYQLRDSKSSDKSVCLFTDFDSQTNVSQSKDSDVYITDKTVLDMRSMDFKSNSAVAWSNKSDFACANAFNNSIIPEDTFFPSPESSCDVKLVEKSFETDTNLNFQNLSVIGFRILLLKVAGFNLLMTLRLWSS TCR beta: GAVVSQHPSRVICKSGTSVKIECRSLDFQATTMFWYRQFPKQSLMLMATSNEGSKATYEQGVEKDKFLINHASLTLSTLTVTSAHPEDSSFYICSARDQASQNTGELFFGEGSRLTVLEDLKNVFPPKVAVFEPSEAEISHTQKATLVCLATGFYPDHVELSWWVNGKEVHSGVSTDPQPLKEQPALNDSRYCLSSRLRVSATFWQNPRNHFRCQVQFYGLSENDEWTQDRAKPVTQIVSAEAWGRADCGFTSESYQQGVLSATILYEILLGKATLYAVLVSALVLMAMVKRKDSRG | 4 |
| TCR_30: TCR to … / B*07:02 (protein) TCR alpha: SQQPVQSPQAVILREGEDAVINCSSSKALYSVHWYRQKHGEAPVFLMILLKGGEQKGHEKISASFNEKKQQSSLYLTASQLSYSGTYFCGTAFFNAGGTSYGKLTFGQGTILTVHPNIQNPDPAVYQLRDSKSSDKSVCLFTDFDSQTNVSQSKDSDVYITDKTVLDMRSMDFKSNSAVAWSNKSDFACANAFNNSIIPEDTFFPSPESSCDVKLVEKSFETDTNLNFQNLSVIGFRILLLKVAGFNLLMTLRLWSS TCR beta: NAGVTQTPKFRILKIGQSMTLQCTQDMNHNYMYWYRQDPGMGLKLIYYSVGAGITDKGEVPNGYNVSRSTTEDFPLRLELAAPSQTSVYFCASSPGASYNEQFFGPGTRLTVLEDLKNVFPPKVAVFEPSEAEISHTQKATLVCLATGFYPDHVELSWWVNGKEVHSGVSTDPQPLKEQPALNDSRYCLSSRLRVSATFWQNPRNHFRCQVQFYGLSENDEWTQDRAKPVTQIVSAEAWGRADCGFTSESYQQGVLSATILYEILLGKATLYAVLVSALVLMAMVKRKDSRG | 4 |
| TCR_31: TCR to … / A*24:02 (protein) TCR alpha: ILNVEQSPQSLHVQEGDSTNFTCSFPSSNFYALHWYRWETAKSPEALFVMTLNGDEKKKGRISATLNTKEGYSYLYIKGSQPEDSATYLCALGNTGGFKTIFGAGTRLFVKANIQNPDPAVYQLRDSKSSDKSVCLFTDFDSQTNVSQSKDSDVYITDKTVLDMRSMDFKSNSAVAWSNKSDFACANAFNNSIIPEDTFFPSPESSCDVKLVEKSFETDTNLNFQNLSVIGFRILLLKVAGFNLLMTLRLWSS TCR beta: DSGVTQTPKHLITATGQRVTLRCSPRSGDLSVYWYQQSLDQGLQFLIQYYNGEERAKGNILERFSAQQFPDLHSELNLSSLELGDSALYFCASSVEVQARSDTQYFGPGTRLTVLEDLKNVFPPKVAVFEPSEAEISHTQKATLVCLATGFYPDHVELSWWVNGKEVHSGVSTDPQPLKEQPALNDSRYCLSSRLRVSATFWQNPRNHFRCQVQFYGLSENDEWTQDRAKPVTQIVSAEAWGRADCGFTSESYQQGVLSATILYEILLGKATLYAVLVSALVLMAMVKRKDSRG | 4 |
| TCR_32: TCR to … / A*02:01 (protein) TCR alpha: QTVTQSQPEMSVQEAETVTLSCTYDTSESDYYLFWYKQPPSRQMILVIRQEAYKQQNATENRFSVNFQKAAKSFSLKISDSQLGDAAMYFCAYMDNNDMRFGAGTRLTVKPNIQNPDPAVYQLRDSKSSDKSVCLFTDFDSQTNVSQSKDSDVYITDKTVLDMRSMDFKSNSAVAWSNKSDFACANAFNNSIIPEDTFFPSPESSCDVKLVEKSFETDTNLNFQNLSVIGFRILLLKVAGFNLLMTLRLWSS TCR beta: DSGVTQTPKHLITATGQRVTLRCSPRSGDLSVYWYQQSLDQGLQFLIQYYNGEERAKGNILERFSAQQFPDLHSELNLSSLELGDSALYFCASSDGQGGYGYTFGSGTRLTVVEDLNKVFPPEVAVFEPSEAEISHTQKATLVCLATGFFPDHVELSWWVNGKEVHSGVSTDPQPLKEQPALNDSRYCLSSRLRVSATFWQNPRNHFRCQVQFYGLSENDEWTQDRAKPVTQIVSAEAWGRADCGFTSVSYQQGVLSATILYEILLGKATLYAVLVSALVLMAMVKRKDF | 4 |
| TCR_33: TCR to … / A*02:01 (protein) TCR alpha: AQRVTQPEKLLSVFKGAPVELKCNYSYSGSPELFWYVQYSRQRLQLLLRHISRESIKGFTADLNKGETSFHLKKPFAQEEDSAMYYCALGALTGQNFVFGPGTRLSVLPYIQNPDPAVYQLRDSKSSDKSVCLFTDFDSQTNVSQSKDSDVYITDKTVLDMRSMDFKSNSAVAWSNKSDFACANAFNNSIIPEDTFFPSPESSCDVKLVEKSFETDTNLNFQNLSVIGFRILLLKVAGFNLLMTLRLWSS TCR beta: EADIYQTPRYLVIGTGKKITLECSQTMGHDKMYWYQQDPGMELHLIHYSYGVNSTEKGDLSSESTVSRIRTEHFPLTLESARPSHTSQYLCASSRLESLGNTIYFGEGSWLTVVEDLNKVFPPEVAVFEPSEAEISHTQKATLVCLATGFFPDHVELSWWVNGKEVHSGVSTDPQPLKEQPALNDSRYCLSSRLRVSATFWQNPRNHFRCQVQFYGLSENDEWTQDRAKPVTQIVSAEAWGRADCGFTSVSYQQGVLSATILYEILLGKATLYAVLVSALVLMAMVKRKDF | 4 |
| TCR_37: TCR to … / A*02:01 (protein) TCR alpha: AQKITQTQPGMFVQEKEAVTLDCTYDTSDPSYGLFWYKQPSSGEMIFLIYQGSYDQQNATEGRYSLNFQKARKSANLVISASQLGDSAMYFCAMRGAINTGTASKLTFGTGTRLQVTLDIQNPDPAVYQLRDSKSSDKSVCLFTDFDSQTNVSQSKDSDVYITDKTVLDMRSMDFKSNSAVAWSNKSDFACANAFNNSIIPEDTFFPSPESSCDVKLVEKSFETDTNLNFQNLSVIGFRILLLKVAGFNLLMTLRLWSS TCR beta: DAGITQSPRHKVTETGTPVTLRCHQTENHRYMYWYRQDPGHGLRLIHYSYGVKDTDKGEVSDGYSVSRSKTEDFLLTLESATSSQTSVYFCAISESWTSGIGREETQYFGPGTRLLVLEDLKNVFPPKVAVFEPSEAEISHTQKATLVCLATGFYPDHVELSWWVNGKEVHSGVSTDPQPLKEQPALNDSRYCLSSRLRVSATFWQNPRNHFRCQVQFYGLSENDEWTQDRAKPVTQIVSAEAWGRADCGFTSESYQQGVLSATILYEILLGKATLYAVLVSALVLMAMVKRKDSRG | 3 |
| TCR_39: TCR to … / A*02:01 (protein) TCR alpha: QLLEQSPQFLSIQEGENLTVYCNSSSVFSSLQWYRQEPGEGPVLLVTVVTGGEVKKLKRLTFQFGDARKDSSLHITAAQPGDTGLYLCAGARSGNTGKLIFGQGTTLQVKPDIQNPDPAVYQLRDSKSSDKSVCLFTDFDSQTNVSQSKDSDVYITDKTVLDMRSMDFKSNSAVAWSNKSDFACANAFNNSIIPEDTFFPSPESSCDVKLVEKSFETDTNLNFQNLSVIGFRILLLKVAGFNLLMTLRLWSS TCR beta: GAGVSQSPRYKVTKRGQDVALRCDPISGHVSLYWYRQALGQGPEFLTYFNYEAQQDKSGLPNDRFSAERPEGSISTLTIQRTEQRDSAMYRCASSLGPGQGYNEQFFGPGTRLTVLEDLKNVFPPKVAVFEPSEAEISHTQKATLVCLATGFYPDHVELSWWVNGKEVHSGVSTDPQPLKEQPALNDSRYCLSSRLRVSATFWQNPRNHFRCQVQFYGLSENDEWTQDRAKPVTQIVSAEAWGRADCGFTSESYQQGVLSATILYEILLGKATLYAVLVSALVLMAMVKRKDSRG | 3 |
| TCR_40: TCR to … / A*24:02 (protein) TCR alpha: SQQPVQSPQAVILREGEDAVINCSSSKALYSVHWYRQKHGEAPIFLMILLKGGEQKGHDKISASFNEKKQQSSLYLTASQLSYSGTYFCGTESPGNNDMRFGAGTRLTVKPNIQNPDPAVYQLRDSKSSDKSVCLFTDFDSQTNVSQSKDSDVYITDKTVLDMRSMDFKSNSAVAWSNKSDFACANAFNNSIIPEDTFFPSPESSCDVKLVEKSFETDTNLNFQNLSVIGFRILLLKVAGFNLLMTLRLWSS TCR beta: MGPGLLCWVLLCLLGAGSVETGVTQSPTHLIKTRGQQVTLRCSSQSGHNTVSWYQQALGQGPQFIFQYYREEENGRGNFPPRFSGLQFPNYSSELNVNALELDDSALYLCASSSSALEDPEQYFGPGTRLTVTEDLKNVFPPKVAVFEPSEAEISHTQKATLVCLATGFYPDHVELSWWVNGKEVHSGVSTDPQPLKEQPALNDSRYCLSSRLRVSATFWQNPRNHFRCQVQFYGLSENDEWTQDRAKPVTQIVSAEAWGRADCGFTSESYQQGVLSATILYEILLGKATLYAVLVSALVLMAMVKRKDSRG | 3 |
| TCR_41: TCR to … / A*01:01 (protein) TCR alpha: GESVGLHLPTLSVQEGDNSIINCAYSNSASDYFIWYKQESGKGPQFIIDIRSNMDKRQGQRVTVLLNKTVKHLSLQIAATQPGDSAVYFCAASTGGQKLLFARGTMLKVDLNIQNPDPAVYQLRDSKSSDKSVCLFTDFDSQTNVSQSKDSDVYITDKTVLDMRSMDFKSNSAVAWSNKSDFACANAFNNSIIPEDTFFPSPESSCDVKLVEKSFETDTNLNFQNLSVIGFRILLLKVAGFNLLMTLRLWSS TCR beta: MGPGLLCWVLLCLLGAGSVETGVTQSPTHLIKTRGQQVTLRCSSQSGHNTVSWYQQALGQGPQFIFQYYREEENGRGNFPPRFSGLQFPNYSSELNVNALELDDSALYLCASSDLAQYLNTGELFFGEGSRLTVLEDLKNVFPPKVAVFEPSEAEISHTQKATLVCLATGFYPDHVELSWWVNGKEVHSGVSTDPQPLKEQPALNDSRYCLSSRLRVSATFWQNPRNHFRCQVQFYGLSENDEWTQDRAKPVTQIVSAEAWGRADCGFTSESYQQGVLSATILYEILLGKATLYAVLVSALVLMAMVKRKDSRG | 3 |
